Pooled drug test results. Numbers come from NIAID ChemDB, via PubChem.

Common to all: cytotoxicity tests; cells: MT-2; read by: XTT; measure: CC50

CCn: concentration that lowers growth or viability of the cells by n%. Neighbouring rows are from separate reports.

compound | result
C=C(COCCc1ccccc1)[C@@H]1CC[C@]2(C(=O)NC(CC(C)C)C(=O)O)CC[C@]3(C)[C@H](CC[C@@H]4[C@@]5(C)CC[C@H](O)C(C)(C)[C@@H]5CC[C@]43C)[C@@H]12.COC | 16.7 µM
Nc1nc2c(ncn2[C@H]2CC[C@@H](CO)O2)c(=O)[nH]1 | 830 µM
Nc1nc(N)c2ncn([C@H]3CO[C@@H](CO)O3)c2n1 | >1000 µM
NC(=O)C(c1ccccc1)(c1ccccc1)[C@H]1CCCN(CCc2ccc3c(c2)CCO3)C1 | >32 µM
C(=C1/CNC/C(=C\c2ccco2)C1=Nc1ccccc1)/c1ccco1 | >121 µM
CC(C)OC(=O)OCOP(=O)(CO[C@H](C)Cn1cnc2c(N)ncnc21)OCOC(=O)OC(C)C | >200 µM
NC(=O)C(c1ccccc1)(c1ccccc1)[C@H]1CCCN(CCOc2ccccc2)C1 | 31 µM
C=C(COCCc1ccccc1)[C@@H]1CC[C@]2(C(=O)NC(CC(C)C)C(=O)O)CC[C@]3(C)[C@H](CC[C@@H]4[C@@]5(C)CC[C@H](O)C(C)(C)[C@@H]5CC[C@]43C)[C@@H]12.CF | 24.4 µM
OC1/C(=C/c2ccco2)CNC/C1=C\c1ccco1 | >156 µM
NC(=O)C(c1ccccc1)(c1ccccc1)[C@H]1CCCN(CCc2ccc3c(c2)CCC3)C1 | 6 µM
Fc1ccccc1N=C1/C(=C/c2ccco2)CNC/C1=C\c1ccco1 | >114.8 µM
Nc1nc2c(ncn2[C@H]2C=C[C@@H](CO)C2)c(=O)[nH]1 | 175 µM
Fc1ccc(N=C2/C(=C/c3ccco3)CNC/C2=C\c2ccco2)c(F)c1 | >109 µM
Cc1cn([C@H]2C=C[C@@H](OCP(=O)(O)O)O2)c(=O)[nH]c1=O | >500 µM

Repeating the first 2 entries:

compound,result
C=C(COCCc1ccccc1)[C@@H]1CC[C@]2(C(=O)NC(CC(C)C)C(=O)O)CC[C@]3(C)[C@H](CC[C@@H]4[C@@]5(C)CC[C@H](O)C(C)(C)[C@@H]5CC[C@]43C)[C@@H]12.COC,16.7 µM
Nc1nc2c(ncn2[C@H]2CC[C@@H](CO)O2)c(=O)[nH]1,830 µM